Results deposited as PubChem BioAssay AID624099 (ICCB-Longwood, 2012)
Shown is one part, drawn at random, of about 21,000 reagents. Of all reagents, 497 (2.4%) got an active call. 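Higher z means weaker E2 silencing; only reporter increases were scored, and knock-downs that hurt cell survival may mask genuine repressor factors.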 A number with no mark means an inactive call.

Purpose: 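Host factors E2 relies on to silence an HPV18 LCR reporter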 (primary screen)
Cell system: human C33A cervical carcinoma cells (HPV-negative) stably expressing BPV1 E2 and an HPV18 LCR luciferase reporter
Reagent: siRNA pool against human genes, 40 nM
Time to read-out: 72 h
Read-out: 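HPV18 LCR reporter light per well, converted to plate-wise z-scores that exclude control wells, and averaged over triplicate plates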
Direction: mean z-score and z-score: higher = stronger reporter signal, weaker E2 silencing
Rule for the call: 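Mean z ≥ 2 together with z ≥ 2 in two or more of the three replicates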

| target | mean z-score | z-score, replicate A | z-score, replicate B | z-score, replicate C |
| --- | --- | --- | --- | --- |
| ZNF527 | -0.34 | -0.14 | -0.75 | -0.12 |
| TMBIM6 | -0.03 | 0.1 | 0.09 | -0.28 |
| SAXO1 | 2.65 (active) | 2.92 | 2.65 | 2.39 |
| TP53 | -0.11 | -0.12 | -0.07 | -0.15 |
| SNPH | -0.38 | -0.41 | -0.31 | -0.43 |
| GGT6 | -0.69 | -0.74 | -0.75 | -0.6 |
| PDE6H | 0.08 | 0 | 0.3 | -0.07 |
| PLVAP | -0.24 | -0.28 | -0.11 | -0.34 |
| TRIB2 | -0.51 | -0.63 | -0.26 | -0.64 |
| RORA | -0.42 | -0.24 | -0.59 | -0.45 |
| TLR2 | 0.14 | 0.33 | 0.04 | 0.04 |
| NR1D2 | -0.42 | -0.46 | -0.48 | -0.32 |
| CTLA4 | -0.33 | -0.25 | -0.32 | -0.43 |
| CCDC107 | -0.03 | -0.09 | 0.05 | -0.06 |
| CCDC110 | 0.22 | 0.34 | 0.22 | 0.12 |
| ZNF20 | 0.37 | 0.57 | 0.4 | 0.14 |
| CASD1 | 0.26 | 0.77 | 0.23 | -0.23 |
| DNM3 | 0.58 | 0.55 | 0.25 | 0.93 |
| JAK3 | -1.3 | -1.19 | -1.69 | -1.01 |
| ELOC | -0.45 | -0.21 | -0.61 | -0.52 |
| RPGRIP1 | -0.18 | -0.5 | -0.13 | 0.09 |
| SLC25A26 | 2.03 (active) | 2.1 | 2.19 | 1.79 |
| USP6 | -0.65 | -0.61 | -0.67 | -0.67 |
| METTL16 | -1.55 | -1.49 | -1.59 | -1.59 |
| GALR2 | -0.02 | 0.04 | -0.06 | -0.02 |
| IREB2 | 0.45 | 0.51 | 0.27 | 0.59 |
| LOC727862 (retired record) | -0.33 | 0.04 | -0.61 | -0.41 |
| CDH7 | -0.1 | -0.18 | 0 | -0.12 |
| GARIN4 | -0.35 | -0.48 | -0.12 | -0.45 |
| SRP72 | 0.59 | 0.66 | 0.68 | 0.44 |
| NR2F1 | -0.09 | -0.07 | 0.19 | -0.4 |
| CIB4 | 0.31 | 0.36 | 0.53 | 0.05 |
| CACNA1I | 0.13 | 0.29 | 0.09 | 0.01 |
| LOC389069 (retired record) | 1.68 | 2.01 | 1.66 | 1.37 |
| IGHV1OR21-1 | -0.45 | -0.07 | -0.78 | -0.49 |
| NPSR1 | -0.87 | -0.39 | -1.34 | -0.87 |
| POMT1 | -0.77 | -0.94 | -0.6 | -0.78 |
| MOAP1 | 0.66 | 0.69 | 0.61 | 0.68 |
| FAM221A | 0.01 | -0.4 | 0.15 | 0.27 |
| PIGN | 3.62 (active) | 3.85 | 3.4 | 3.6 |
| NUTM2B | -0.37 | -0.3 | -0.63 | -0.19 |
| EPS8 | 0.11 | -0.18 | 0.3 | 0.21 |
| GDPD2 | 0.55 | 0.23 | 0.31 | 1.1 |
| CD79B | -0.04 | 0.1 | -0.19 | -0.03 |
| SACS | -0.64 | -0.27 | -0.74 | -0.92 |
| ZNF362 | 0.94 | 0.95 | 0.69 | 1.19 |
| DYNLL1 | -0.78 | -0.71 | -0.93 | -0.69 |
| LOC388291 (retired record) | 0.52 | 0.68 | 0.02 | 0.85 |
| AGBL3 | 1.49 | 1.34 | 1.27 | 1.87 |
| KIF4A | -1.05 | -1.19 | -1.09 | -0.88 |
| GALM | 2.83 (active) | 3.14 | 2.85 | 2.51 |
| RPS4Y2 | 0.19 | 0.04 | 0.53 | -0.01 |
| RELT | 0.86 | 0.7 | 0.8 | 1.1 |
| GPR87 | -0.46 | -0.66 | -0.22 | -0.48 |
| TMEM60 | -0.58 | -0.65 | -0.5 | -0.59 |
| PRODH | -1.2 | -0.88 | -1.22 | -1.52 |
| TOPAZ1 | 0.08 | -0.23 | 0.31 | 0.16 |
| UBE2J1 | -0.73 | -0.4 | -0.94 | -0.84 |
| MARCKSL1 | 0.06 | 0.05 | -0.01 | 0.14 |
| GNG10 | 1.22 | 1.04 | 1.41 | 1.22 |
| DESI2 | 0.39 | -0.27 | 0.56 | 0.87 |
| LOC388852 (retired record) | -0.01 | -0.1 | 0.01 | 0.05 |
| DOCK11 | -0.32 | -0.12 | -0.38 | -0.45 |
| RPS25 | -0.83 | -1.19 | -0.85 | -0.44 |
| FAHD2A | -0.73 | -0.94 | -0.84 | -0.42 |
| MEP1B | 0.45 | 0.68 | 0.33 | 0.36 |
| GPR107 | 0.03 | -0.21 | 0.24 | 0.05 |
| DGKB | 1.87 | 2.3 | 1.7 | 1.6 |
| SERGEF | -0.16 | 0.07 | -0.37 | -0.19 |
| HSPA1B | -0.09 | 0.28 | -0.22 | -0.34 |
| IRAK1BP1 | -0.54 | -0.53 | -0.74 | -0.34 |
| DUSP5 | -0.56 | -0.34 | -0.42 | -0.91 |
| ZNF507 | 0.59 | 0.69 | 0.65 | 0.42 |

In a second layout: entries from further up
{"target": "TMEM60", "mean z-score": -0.58, "z-score, replicate A": -0.65, "z-score, replicate B": -0.5, "z-score, replicate C": -0.59}
{"target": "PRODH", "mean z-score": -1.2, "z-score, replicate A": -0.88, "z-score, replicate B": -1.22, "z-score, replicate C": -1.52}
{"target": "TOPAZ1", "mean z-score": 0.08, "z-score, replicate A": -0.23, "z-score, replicate B": 0.31, "z-score, replicate C": 0.16}
{"target": "UBE2J1", "mean z-score": -0.73, "z-score, replicate A": -0.4, "z-score, replicate B": -0.94, "z-score, replicate C": -0.84}
{"target": "MARCKSL1", "mean z-score": 0.06, "z-score, replicate A": 0.05, "z-score, replicate B": -0.01, "z-score, replicate C": 0.14}
